A mixed list of measured activities; the numbers were collected in NIAID ChemDB.

Shared fields: enzyme or target tests; species: HIV-1; protein: Reverse transcriptase; method: nucleotide incorporation / radiometric; read-out: fold resistance

Conditions beyond the fields shown may differ between rows. Fold resistance has wild type as its base. Two numbers with a dash give a range or band. An empty or dashed field is not shown.

structure,changes,strain,value
COC(=O)[C@H](CC(C)C)NC(=O)c1ccc(NC(=O)CSc2nnc(Br)n2-c2ccc(C3CC3)c3ccccc23)c(Cl)c1,RT-Y188L,-,>1
O=C(CSc1nnc(Br)n1-c1ccc(C2CC2)cc1OC(F)(F)F)Nc1ccc(S(=O)(=O)O)cc1Cl,RT-Y188L,-,>2
CCN1c2ncc(CCOc3ccc(C(=O)Nc4ccc(C(=O)O)cc4)cc3C)cc2C(=O)Nc2c(C)ccnc21,RT-K103N Y181C,IIIB,1
CCN1c2ncc(CCOc3cccc4c3ccc[n+]4[O-])cc2C(=O)N(C)c2ccc(Cl)nc21,RT-K103N V108I,-,6.4
CCN1c2ncc(CCOc3ccc(-c4cc(C(=O)O)ccc4C)cc3C)cc2C(=O)N(C)c2cccnc21,RT-K103N Y181C,IIIB,>2
Cc1occc1C(=S)Nc1ccc(Cl)c(C(=O)OCC2CC2)c1,RT-K103N,-,>8.33
CCc1cc(C2CC2)ccc1-n1c(Br)nnc1SCC(=O)Nc1ccc(C(=O)O)cc1Cl,RT-Y181C,-,>1
C=Cc1cc(N(CC)CC)nc(S(C)(=O)=O)n1,RT-K103N,-,>114
CCN1c2ncc(CCOc3ccc(CCC(=O)O)c4c3CCCC4)cc2C(=O)N(C)c2cccnc21,RT-V106A,-,>10
Cc1occc1C(=S)Nc1ccc(Cl)c(/C=N/OC(C)(C)C)c1,RT-K103N,-,>3.85
CCN1c2ncc(CCOc3ccc(C(=O)Nc4ccccc4C(=O)O)cc3C)cc2C(=O)N(C)c2cccnc21,RT-K103N Y181C,IIIB,>2
O=C(CSc1nnc(Br)n1-c1ccc(C2CC2)cc1Cl)Nc1ccc(S(=O)(=O)O)cc1Cl,RT-Y188L,-,>2
C=Cc1nc(SC)nc(N(C)C)c1Cl,RT-K103N,-,>4.4
Cc1ccc2c(C)cc(C)c(-n3c(SCC(=O)Nc4ccc(S(N)(=O)=O)cc4C)nnc3C(F)F)c2n1,RT-Y188L,-,>2
C=CCO/N=C/c1cc(NC(=S)c2ccoc2C)ccc1Cl,RT-L108I,-,>8.33
CCc1ccc(-n2c(Br)nnc2SCC(=O)Nc2ccc(C(=O)O)cc2C)c2ccccc12,RT-Y188L,-,>2
Cc1cc(C2CC2)c2ccccc2c1-n1c(Br)nnc1SCC(=O)Nc1ccc(C(=O)O)cc1Cl,RT-Y188L,-,>2
CCN1c2ncc(CCOc3ccc(NC(=O)C4CC4C(=O)O)cc3C)cc2C(=O)N(C)c2cccnc21,RT-K103N Y181C,IIIB,>2
CCN1c2ncc(CCOc3ccc(C(C)CC(=O)O)c4ccccc34)cc2C(=O)N(C)c2cccnc21,RT-V106A,-,>10
Cc1ccc(-n2c(SCC(=O)Nc3ccc(S(=O)(=O)NC(C)C(=O)O)cc3Cl)nnc2C(F)F)c2c1CCCC2,RT-Y188L,-,>2
O=C(CSc1nnc(Br)n1-c1ccc(C2CC2)cc1C(F)(F)F)Nc1ccc(C(=O)O)cc1Cl,RT-Y188L,-,>2
CCc1ccc(-n2c(Br)nnc2SCC(=O)Nc2ccc(C(=O)NCC(OC)OC)cc2Cl)c2ccccc12,RT-Y188L,-,>2
CCc1ccc(-n2c(CF)nnc2SCC(=O)Nc2ccc(C(=O)O)cc2Cl)c2ccccc12,RT-Y188L,-,>2
CCc1ccc(-n2c(I)nnc2SCC(=O)Nc2ccc(S(N)(=O)=O)cc2Cl)c2ccccc12,RT-Y181C,-,>1
CCN1c2ncc(CCOc3ccc(C(=O)Nc4cccnc4C)cc3C)cc2C(=O)N(C)c2cccnc21,RT-K103N Y181C,IIIB,1
CCc1ccc(-n2c(Br)nnc2SCC(=O)Nc2ccc(C(=O)O)cc2Cl)c2ccccc12,RT-Y188L,-,>2
CCN1c2ncc(CCOc3ccc(C(=O)O)c4c3CCN(C(C)=O)C4)cc2C(=O)N(C)c2cccnc21,RT-K103N Y181C,-,1–10
CCN1c2ncc(CCOc3ccc(-c4cc(C)nc(C)c4)cc3C)cc2C(=O)N(C)c2cccnc21,RT-K103N Y181C,IIIB,1
CCc1ccc(-n2c(Br)nnc2SCC(=O)Nc2ccc(C(=O)NCC(C)(C)N)cc2Cl)c2ccccc12,RT-Y188L,-,>1
CCN1c2ncc(CCOc3ccc(-c4ccc(C(=O)O)o4)cc3C)cc2C(=O)N(C)c2cccnc21,RT-K103N Y181C,IIIB,>2
CCN1c2ncc(CCOc3ccc(NC(=O)CC(C)(C)C(=O)O)c4ccccc34)cc2C(=O)N(C)c2cccnc21,RT-K103N Y181C,-,1–10
CCc1ccc(-n2c(Br)nnc2SCC(=O)Nc2ccc(S(N)(=O)=O)cc2Cl)c2c1CCCC2,RT-Y188L,-,>1
CCN1c2ncc(CCOc3ccc(CC(=O)O)c4ccccc34)cc2C(=O)N(C)c2ccc(Cl)nc21,RT-Y188L,-,>10
CCCc1cc(=O)oc2c3c(c4c(c12)OC(C)(C)C=C4)O[C@H](C)C[C@@H]3O,RT-L100I,-,3.4

For reference, 4 entries again:

structure | changes | strain | value
CCN1c2ncc(CCOc3cccc4c3ccc[n+]4[O-])cc2C(=O)N(C)c2ccc(Cl)nc21 | RT-K103N V108I | - | 6.4
Cc1occc1C(=S)Nc1ccc(Cl)c(C(=O)OCC2CC2)c1 | RT-K103N | - | >8.33
CCc1ccc(-n2c(Br)nnc2SCC(=O)Nc2ccc(C(=O)NCC(OC)OC)cc2Cl)c2ccccc12 | RT-Y188L | - | >2
C=Cc1nc(SC)nc(N(C)C)c1Cl | RT-K103N | - | >4.4